Measured values reported in patent publication EP0606747A1, “Tilmicosin and derivatives for treating gram-positive diseases of aquatic species” (ELI LILLY AND COMPANY, priority 1992, dated 1994).
Marks after values point to notes of the source that are not given here.

Assay: Test 3: palatability and growth study in Atlantic salmon, tilmicosin base versus phosphate salt
Type: in vivo, Atlantic salmon (Salmo salar)
Settings: 800 mg/kg of diet (free base equivalent), four weeks; for Feed conversion / Mean feeding rate (%BW) / Total feed intake (g) / Total tank weight gain (%BW) / Total tank weight gain (g): three tanks of 30 fish, spread in brackets
Method: Test 3: Palatability and Growth Studies in Atlantic Salmon, Comparing Tilmicosin Base and Phosphate Salt
A trial was conducted to determine the palatability to Atlantic salmon (Salmo salar), St. John River strain, of diets containing either tilmicosin (free base) or tilmicosin phosphate. Pre-smolt salmon, each weighing about 50 grams, from a certified disease free stock, were used. The salmon, 30 per tank and 9 tanks, were acclimatized for about two weeks. During this period and throughout the trial, the tanks were maintained with fresh single-pass flow-through well water, 2 liters per minute, 12 ± 1°C., and the photoperiod was 12/12. During the acclimatization, all fish were fed a standard feed. Thereafter the salmon in three tanks continued to receive the standard diet, to serve as a control. The salmon in three other tanks received a modified diet containing 800 mg of tilmicosin (free base) per kilogram of diet; the salmon in the last three tanks received a modified diet containing tilmicosin phosphate in an amount equivalent to 800 mg of tilmicosin (free base) per kilogram of diet. All fish were fed to satiation, defined as the point at which there is a noticeable decline in the feeding response. Feed was supplied 3× on weekdays and 1× on weekend days. The trial was continued for a four-week period, during which these parameters were evaluated: feed intake feed intake as % of body weight weight gain weight gain as % of body weight feed conversion All surviving fish were euthanized. The results are set forth in the following table; mean values with the same alphabetic superscript were not statistically different at the 0.05 level.

Molecule	rate of consumption versus unmedicated diets	Feed conversion	Mean feeding rate (%BW)	Total feed intake (g)	Total tank weight gain (%BW)	Total tank weight gain (g)
tilmicosin phosphate	consumed at the same rate as unmedicated diets	0.78 (0.04)^a	1.38 (0.02)^a %BW	625.5 (15.5)^a g	53.7 (3.9)^a %BW	802.3 (52.9)^a g
CC[C@H]1OC(=O)C[C@@H](O)[C@H](C)[C@@H](O[C@@H]2O[C@H](C)[C@@H](O)[C@H](N(C)C)[C@H]2O)[C@@H](CCN2C[C@H](C)C[C@H](C)C2)C[C@@H](C)C(=O)/C=C/C(C)=C/[C@@H]1CO[C@@H]1O[C@H](C)[C@@H](O)[C@@H](OC)[C@H]1OC [tilmicosin]	consumed at the same rate as unmedicated diets	0.79 (0.02)^a	1.40 (0.06)^a %BW	658.9 (22.9)^a g	53.5 (0.9)^a %BW	831.0 (51.8)^a g
